Pooled drug test results. Numbers come from NIAID ChemDB, via PubChem.

Common to all: whole-cell or culture tests; organism: HIV-1; method: cytopathic effect / XTT; endpoint: EC50

ECn is the concentration giving n% inhibition of infection, replication or growth. An empty or dashed field is not shown. Rows are shuffled and stem from different studies.

structure,cell line,mutations,strain or isolate,value
CC(C)=CCC[C@]1(C)C=Cc2c(ccc3c2C(=O)C(O)=C(C2=C(C4=C(O)C(=O)c5c(ccc6c5C=C[C@@](C)(CCC=C(C)C)O6)C4=O)C(=O)c4c(ccc5c4C=C[C@@](C)(CCC=C(C)C)O5)C2=O)C3=O)O1,CEM + CEM-SS,,RF,<0.02 µM
CC(C)c1c([Se]c2ccccc2)n(COCCO)c(=S)[nH]c1=O,CEM + CEM-SS,,RF,0.093 µM
C[C@@](O)(/C=C/[C@H]1CC=CC(=O)O1)[C@@H](C[C@@H](O)\C=C/C=C\C=C\CO)OP(=O)(O)O,CEM + CEM-SS,,RF,>18 µM
Cc1cn([C@H]2C[C@H](N=[N+]=[N-])[C@@H](CO)O2)c(=O)[nH]c1=O,CEM + CEM-SS,,205,0.016 µM
Cc1cn([C@H]2C[C@H](N=[N+]=[N-])[C@@H](CO)O2)c(=O)[nH]c1=O,CEM + CEM-SS,,IIIB,0.0061 µM
CN(C)CCCNC(=O)c1cc(NC(=O)c2cc(NC(=O)c3cc(NC(=O)c4ccc(C(=O)Nc5cc(C(=O)Nc6cc(C(=O)Nc7cc(C(=O)NCCCN(C)C)n(C)c7)n(C)c6)n(C)c5)cc4)cn3C)cn2C)cn1C,CEM,,,>100 µM
O=CNc1ccc(S(=O)(=O)c2ccc(NC=O)cc2)cc1,CEM + CEM-SS,,RF,>100 µg/mL
Cc1cn([C@H]2C[C@H](N=[N+]=[N-])[C@@H](CO)O2)c(=O)[nH]c1=O,MT-2,RT-K103N,Site-directed mutant,0.85 µM
CCOCn1c([Se]c2cc(C)cc(C)c2)c(C(C)C)c(=O)[nH]c1=S,CEM + CEM-SS,,RF,0.027 µM
Cc1cn([C@H]2C[C@H](N=[N+]=[N-])[C@@H](CO)O2)c(=O)[nH]c1=O,PBMC,,SLKA (non-syncytium-inducing),0.02 µM
O=S(=O)(NCCc1ccccc1)Nc1ccc(Cl)cn1,MT-4,,IIIB,>100 µM
Cc1ccnc2c1NC(=O)c1cccnc1N2C1CC1,CEM + CEM-SS,,IIIB,0.03 µM
CC(C)(C)NC(=O)[C@H]1N(C(=O)[C@@H](O)[C@H](Cc2ccccc2)NC(=O)[C@H](CC(N)=O)NC(=O)COc2cccc(Nc3ccccc3)c2)CSC1(C)C,CEM + CEM-SS,,IIIB,0.05 µM
O=S1(c2ccccc2)=NC(=S)Nc2ccccc21,CEM + CEM-SS,,C,4.16 µM
CC[C@H](NC(=O)COc1cccc(N(C)C)c1)C(=O)N[C@@H](Cc1ccccc1)[C@H](O)C(=O)N1CSC(C)(C)[C@H]1C(=O)NC(C)(C)C,CEM + CEM-SS,,IIIB,0.024 µM
Nc1nc(NC2CC2)c2ncn([C@H]3C=C[C@@H](CO)C3)c2n1,MT-2,,NL4-3 Recombinant,2.4 µM
CC(C)(C)OC(=O)N[C@@H](Cc1ccccc1)[C@H](O)CNC[C@@H](O)[C@H](Cc1ccc(OCC(O)c2cccnc2)cc1)NC(=O)OC(C)(C)C,CEM + CEM-SS,,RF,0.2 µM
CCCc1cc(=O)oc2c3c(c4c(c12)OC(C)(C)C=C4)O[C@@H](C)[C@H](C)[C@@H]3O,CEM + CEM-SS,RT-M184V,3TC-resistant (RT M184V),1.3 µM
N#Cc1c(Br)n([C@@H]2O[C@H](CO)[C@@H](O)[C@H]2O)c2ncnc(N)c12,MT-2 + MT2,,,>100 µM
O=C(Nc1ccc(C(=O)O)c(O)c1)c1ccc(C(=O)Nc2ccc(O)c(C(=O)O)c2)cc1,CEM + CEM-SS,,RF,>140.1 µM
CCc1c([Se]c2cc(C)cc(C)c2)n(COCc2ccccc2)c(=O)[nH]c1=O,CEM + CEM-SS,,RF,0.0063 µM
Cc1cn([C@H]2C[C@H](N=[N+]=[N-])[C@@H](CO)O2)c(=O)[nH]c1=O,CEM + CEM-SS,,RF,0.0037 µg/mL
CCCc1cc(=O)oc2c3c(c4c(c12)OC(C)(C)C=C4)OC(C)C(C)C3O,CEM + CEM-SS,,IIIB,0.062 µM
Nc1nc2c(ncn2[C@H]2CO[C@@H](CO)O2)c(=O)[nH]1,MT-2,,LAI,2.2 µM
CC(C)(C)NC(=O)[C@H]1N(C(=O)[C@@H](O)[C@H](Cc2ccccc2)NC(=O)[C@H](CC(N)=O)NC(=O)COc2cccc3cnccc23)CSC1(C)C,CEM + CEM-SS,,IIIB,0.225 µM
CCc1c(C(=O)c2cc(C)cc(C)c2)n(CC2CC=CC2)c(=O)[nH]c1=O,AA5,,IIIB,0.009 µM
NC(=S)c1c(N)n(COCCO)c2ncnc(N)c12,MT-2 + MT2,,,>350 µM
CCCc1cc(=O)oc2c3c(c4c(c12)OC(C)(C)C=C4)O[C@H](C)[C@@H](C)[C@@H]3O,,,,0.2 µM
N#Cc1c(N)n(COCCO)c2ncnc(N)c12,MT-2 + MT2,,,>400 µM
CN(C)CCCNC(=O)c1cc(NC(=O)c2cc(NC(=O)c3cc(NC(=O)c4ccccc4C(=O)O)cn3C)cn2C)cn1C,CEM,,,>200 µM
Nc1ccn([C@H]2CC[C@@H](CO)O2)c(=O)n1,CEM + CEM-SS,,IIIB,0.042 µM
CC[C@H](NC(=O)COc1cccc2cnccc12)C(=O)N[C@@H](Cc1ccccc1)[C@H](O)C(=O)N1CSC[C@H]1C(=O)NC(C)(C)C,CEM + CEM-SS,,IIIB,0.102 µM

The first 4 rows once more:

structure	cell line	mutations	strain or isolate	value
CC(C)=CCC[C@]1(C)C=Cc2c(ccc3c2C(=O)C(O)=C(C2=C(C4=C(O)C(=O)c5c(ccc6c5C=C[C@@](C)(CCC=C(C)C)O6)C4=O)C(=O)c4c(ccc5c4C=C[C@@](C)(CCC=C(C)C)O5)C2=O)C3=O)O1	CEM + CEM-SS		RF	<0.02 µM
CC(C)c1c([Se]c2ccccc2)n(COCCO)c(=S)[nH]c1=O	CEM + CEM-SS		RF	0.093 µM
C[C@@](O)(/C=C/[C@H]1CC=CC(=O)O1)[C@@H](C[C@@H](O)\C=C/C=C\C=C\CO)OP(=O)(O)O	CEM + CEM-SS		RF	>18 µM
Cc1cn([C@H]2C[C@H](N=[N+]=[N-])[C@@H](CO)O2)c(=O)[nH]c1=O	CEM + CEM-SS		205	0.016 µM